## Potato spindle tuber viroid, loop 15: variant abundance in plants

Data from the supplement of Wu et al. 2024, doi:10.1371/journal.ppat.1012142.

Region: loop 15 of PSTVd (intermediate strain), upper and lower strand joined, each 5' to 3', the first 7 letters being the upper strand, closing pairs included. Wild type: GGAAACCGCUACUAC. Varied positions (N): GGAAACCGNNNNNNC.

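Three N. benthamiana plants were inoculated with the whole mutant pool. Progeny were sequenced from the inoculated region (day 5), the margin of the inoculated leaf (day 10) and systemic leaves (day 12).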

Values are reads per thousand in the sample; higher means more abundant, 0 means not found.
Each site shows the three plants.
"Pool" is the share in the plasmid pool used as inoculum, on the same scale.
The inoculated region was read from the minus strand, the other sites from the plus strand.
Samples held 43,870 to 66,106 reads, so the smallest values rest on one or two reads.
Wild type was 33.9 per thousand in the pool and the most common sequence in every sample (inoculated region 202, 200, 159; leaf margin 724, 746, 710; systemic leaves 856, 883, 880).
The authors trace changes outside the varied positions to PCR and sequencing errors or to mutation in the plant; presence does not show that a variant is infectious alone.

sequence,pool,inoculated region,leaf margin,systemic leaves
GGAAACCGCUACCAC,0.480,0.426 0.562 0.571,0.517 0.824 0.240,0.467 0.333 0.0456
GGAAACCGCUACCCC,0.352,0.0328 0.0643 0.0952,0 0 0.0200,0.0483 0 0
GGAAACCGCUACCGC,0.160,0.0819 0.0803 0.0381,0.0162 0 0.0200,0 0 0
GGAAACCGCUACCUC,0.192,0.295 0.241 0.324,0.113 0.111 0.0601,0.0644 0 0
GGAAACCGCUACGAC,5.23,3.91 2.76 3.03,4.04 3.87 5.01,4.33 3.93 0
GGAAACCGCUACGCC,0.192,0.262 0.0964 0.248,0.0970 0.0668 0.100,0.129 0.0605 0
GGAAACCGCUACGGC,0.224,0.0819 0.225 0.0571,0 0 0.0200,0 0 0
GGAAACCGCUACGUC,0.272,0.115 0.0964 0.209,0 0.0223 0,0.0161 0 0
GGAAACCGCUACUAA,0.208,0.541 0.514 0.457,0.307 1.02 0.942,0.193 0.378 0.0456
GGAAACCGCUACUAC,33.9,202 200 159,724 746 710,856 883 880
GGAAACCGCUACUAG,0.0320,0.262 0.337 0.171,0.113 0.111 0.100,0.0161 0.121 0.114
GGAAACCGCUACUAU,0.336,0.508 0.402 0.571,0.275 0.579 0.321,0.274 0.363 0.137
GGAAACCGCUACUCC,2.27,1.87 1.27 1.52,1.84 1.40 2.20,1.84 1.48 0
GGAAACCGCUACUGC,0.432,0.524 0.466 0.438,2.23 0.289 0.220,0.209 0.378 0.0684
GGAAACCGCUACUUC,0.880,0.606 0.546 0.685,0.210 0.134 0.260,0.612 0.605 0.0912
GGAAACCGCUAGAAC,0.176,0.393 0.353 0.438,0.194 0.0668 0.100,0.0644 0.0605 0.0912
GGAAACCGCUAGACC,0.160,0.147 0.0321 0.152,0.0162 0 0,0 0 0
GGAAACCGCUAGAGC,0.224,0.229 0.386 0.400,0.0485 0.111 0.140,0.0483 0 0.205
GGAAACCGCUAGAUC,0.272,0.295 0.225 0.400,0.113 0.0668 0.220,0.0644 0.0908 0.0912
GGAAACCGCUAGCAC,0.224,0.262 0.337 0.438,0.113 0.0445 0.0601,0.0322 0.0756 0.0684
GGAAACCGCUAGCCC,0.256,0.0819 0.0482 0.114,0 0 0,0 0 0
GGAAACCGCUAGCGC,0.192,0.0819 0.112 0.0190,0.0162 0.0223 0,0 0 0
GGAAACCGCUAGCUC,0.192,0.295 0.305 0.362,0.162 0.0223 0.220,0.0805 0 0
GGAAACCGCUAGGAC,0.192,0.311 0.305 0.190,0.210 0.0668 0.220,0.0805 0.0756 0.114
GGAAACCGCUAGGCC,0.336,0.147 0.0803 0.114,0 0 0,0 0 0
GGAAACCGCUAGGGC,0.224,0.262 0.450 0.267,0.178 0.111 0.220,0.0805 0 0
GGAAACCGCUAGGUC,0.192,0.524 0.434 0.628,0.162 0.0445 0.180,0.113 0.0454 0.0456
GGAAACCGCUAGUAC,0.272,31.2 31.5 35.7,16.6 11.4 20.9,8.61 6.50 6.04
GGAAACCGCUAGUCC,0.224,0.393 0.321 0.400,0.113 0.111 0.160,0.113 0.0605 0.0684
GGAAACCGCUAGUGC,0.320,0.557 0.851 0.685,0.0970 0.0668 0.160,0.0161 0.0756 0.0912
GGAAACCGCUAGUUC,0.384,0.426 0.305 0.267,0.113 0.0445 0.0801,0.0322 0.0605 0.0456
GGAAACCGCUAUAAC,0.208,0.311 0.386 0.400,0.129 0.0891 0.280,0.0322 0.0151 0.0684
GGAAACCGCUAUACC,0.160,0.0983 0.0643 0.0762,0 0 0,0 0 0
GGAAACCGCUAUAGC,0.256,0.0655 0.0803 0.0571,0 0 0,0 0 0.0228
GGAAACCGCUAUAUC,0.320,0.655 0.498 0.609,0.0647 0.134 0.100,0.0483 0.0605 0.0228
GGAAACCGCUAUCAC,0.192,0.295 0.273 0.343,0.0485 0.0668 0.120,0.0161 0.0605 0.0456
GGAAACCGCUAUCCC,0.224,0.0655 0.0964 0.114,0.0162 0 0,0 0 0
GGAAACCGCUAUCGC,0.192,0.0819 0.289 0.171,0 0 0.0401,0.0161 0 0
GGAAACCGCUAUCUC,0.208,0.295 0.434 0.457,0.129 0.0445 0.220,0.0805 0 0
GGAAACCGCUAUGAC,0.368,0.0819 0.0803 0.190,0 0 0.0200,0 0 0
GGAAACCGCUAUGCC,0.192,0.311 0.177 0.152,0.0162 0.0223 0.0401,0.0161 0.0151 0
GGAAACCGCUAUGGC,0.144,0.0819 0.193 0.0762,0.0323 0 0,0 0 0
GGAAACCGCUAUGUC,0.352,0.278 0.273 0.190,0.0162 0 0.0801,0.0161 0.0303 0
GGAAACCGCUAUUAC,16.3,38.3 41.3 46.6,35.7 33.1 43.9,35.8 39.1 38.1
GGAAACCGCUAUUCC,0.224,0.164 0.353 0.305,0.0485 0.0891 0.160,0.0161 0 0
GGAAACCGCUAUUGC,0.160,0.344 0.241 0.362,0.178 0.0445 0.120,0.0161 0.0454 0.0912
GGAAACCGCUAUUUC,0.240,0.328 0.321 0.438,0.0485 0.111 0.120,0.0322 0.0756 0.114
GGAAACCGCUCAAAC,0.192,0.164 0.0803 0.0762,0 0.0445 0,0 0 0
GGAAACCGCUCAACC,0.256,0.131 0.0321 0.0190,0 0 0,0 0 0
GGAAACCGCUCAAGC,0.160,0.0983 0.112 0.0571,0.0162 0 0.0200,0 0 0
GGAAACCGCUCAAUC,0.240,0.115 0.161 0.0571,0 0 0,0 0 0

The opening 4 entries, copied out:

| sequence | pool | inoculated region | leaf margin | systemic leaves |
|---|---|---|---|---|
| GGAAACCGCUACCAC | 0.480 | 0.426 0.562 0.571 | 0.517 0.824 0.240 | 0.467 0.333 0.0456 |
| GGAAACCGCUACCCC | 0.352 | 0.0328 0.0643 0.0952 | 0 0 0.0200 | 0.0483 0 0 |
| GGAAACCGCUACCGC | 0.160 | 0.0819 0.0803 0.0381 | 0.0162 0 0.0200 | 0 0 0 |
| GGAAACCGCUACCUC | 0.192 | 0.295 0.241 0.324 | 0.113 0.111 0.0601 | 0.0644 0 0 |